A mixed list of measured activities; the numbers were collected in NIAID ChemDB.

Common to all: tests in culture; species: HIV-1; cell line: CEM; read-out: EC50

Blank or dashed fields: not listed here. Lines come from different laboratories, so protocols vary. ECn is the concentration giving n% inhibition of infection, replication or growth.

structure	strain	mutations	read by	result
Nc1ncnc2c1ncn2CCOCP(=O)(O)O	IIIB		syncytia	7 µM
CCOCn1c(Sc2ccccc2)c(CC)c(=O)[nH]c1=O	IIIB NEV(RT-V106A)	RT-V106A	syncytia	0.08 µg/mL
CC(C)=CCN1Cc2cc(Cl)cc3[nH]c(=S)n(c23)C[C@@H]1C	IIIB-TIBO(0.1)		syncytia	0.13 µg/mL
CC(C)=CCOc1cc(NC(=S)c2ccoc2C)ccc1Cl	IIIB	RT-V106A	cytopathic effect	0.005 µg/mL
CCc1cc(NCc2nc3c(Cl)ccc(Cl)c3o2)c(=O)[nH]c1C	Quin-0.02(RT-V106A)	RT-V106A	syncytia	0.14 µM
Nc1ccn([C@H]2CC[C@@H](CO)O2)c(=O)n1	IIIB-TIBO(0.5)(RT-L100I)	RT-L100I	syncytia	0.03 µM
C=C(C)OC(=O)N1c2cc(Cl)ccc2NC(=S)C1(C)C	HEPT (RT Y188H)	RT-Y188H	syncytia	1.1 µM
Cc1ccnc2c1NC(=O)c1cccnc1N2C1CC1	IIIB	RT-M184V	p24	0.07 µg/mL
Cc1cn([C@H]2C[C@H](N=[N+]=[N-])[C@@H](CO)O2)c(=O)[nH]c1=O	Q-1 (RT T139K Y181C Y188D/Y)	RT-T139K Y181C Y188D/Y	cytopathic effect	0.046 µM
Cc1ccnc2c1NC(=O)c1cccnc1N2C1CC1	IIIB PYR(RT-Y181C)	RT-Y181C	syncytia	2.5 µg/mL
Fc1cccc(F)c1C1SCc2nc3ccccc3n21	IIIB	RT-Y188C	cytopathic effect / XTT	4.16 µM
CC(C)=CCN1Cc2cc(Cl)cc3[nH]c(=S)n(c23)C[C@@H]1C	IIIB	RT-L100I	p24	1.7 µg/mL
CCn1c(=O)c(C)cn([C@@H]2O[C@H](CO[Si](C)(C)C(C)(C)C)C3(OS(=O)(=O)C=C3N)[C@H]2O[Si](C)(C)C(C)(C)C)c1=O	IIIB HEPT-resistant (RT Y188H)	RT-Y188H	syncytia	>50 µg/mL
CC(C)=CCOc1cc(NC(=S)c2ccoc2C)ccc1Cl	D-3 (RT-V108I M184I)	RT-V108I M184I	cytopathic effect	0.0041 µg/mL
CC(C)=CCN1Cc2cc(Cl)cc3[nH]c(=S)n(c23)C[C@@H]1C	IIIB		syncytia	0.06 µM
CC(C)Nc1cccnc1N1CCN(C(=O)c2cc3cc(NS(C)(=O)=O)ccc3[nH]2)CC1	P-1 (RT-K103N Y144F)	RT-K103N Y144F	cytopathic effect	1.27 µg/mL
CCc1cc(NCc2nc3c(Cl)ccc(Cl)c3o2)c(=O)[nH]c1C	IIIB-TIBO(0.5)(RT-L100I)	RT-L100I	syncytia	0.51 µg/mL
CC(C)=CCOc1cc(NC(=S)c2ccsc2C)ccc1Cl	IIIB	RT-V106A	syncytia	0.025 µM
Cc1cn([C@@H]2O[C@H](CO[Si](C)(C)C(C)(C)C)C3(OS(=O)(=O)C=C3N)[C@H]2O[Si](C)(C)C(C)(C)C)c(=O)n(C)c1=O	RTMC (RT D67N K70R T215F K219Q)	RT-D67N K70R T215F K219Q	p24	0.12 µg/mL
CC(C)Nc1cccnc1N1CCN(C(=O)c2cc3cc(NS(C)(=O)=O)ccc3[nH]2)CC1	IIIB		cytopathic effect	0.006 µg/mL
Cc1cn([C@@H]2O[C@H](CO[Si](C)(C)C(C)(C)C)C3(OS(=O)(=O)C=C3N)[C@H]2O[Si](C)(C)C(C)(C)C)c(=O)n(C)c1=O	IIIB	RT-L100I	cytopathic effect / XTT	0.06 µM
CC(C)=CCN1Cc2cc(Cl)cc3[nH]c(=S)n(c23)C[C@@H]1C	IIIB PYR(RT-Y181C)	RT-Y181C	syncytia	2 µg/mL
Fc1cccc(F)c1[C@H]1SCc2nc3ccccc3n21	IIIB	RT-V106N	cytopathic effect / XTT	4.85 µM
COc1ccc2c(c1)N(C(=O)OC(C)C)[C@@H](CSC)C(=S)N2	IIIB	RT-V106A	p24	0.002 µg/mL
Cc1ccnc2c1NC(=O)c1cccnc1N2C1CC1	IIIB	RT-E138K	cytopathic effect	0.12 µg/mL
CCc1cc(NCc2nc3c(Cl)ccc(Cl)c3o2)c(=O)[nH]c1C	IIIB BHAP(RT-L100I)	RT-L100I	syncytia	0.1 µg/mL
CC(C)Nc1cccnc1N1CCN(C(=O)c2cc3ccccc3[nH]2)CC1	Pyr/BHAP(RT-Y181I)	RT-Y181I	syncytia	6.6 µM

Repeating the final 2 entries:

structure	strain	mutations	read by	result
CCc1cc(NCc2nc3c(Cl)ccc(Cl)c3o2)c(=O)[nH]c1C	IIIB BHAP(RT-L100I)	RT-L100I	syncytia	0.1 µg/mL
CC(C)Nc1cccnc1N1CCN(C(=O)c2cc3ccccc3[nH]2)CC1	Pyr/BHAP(RT-Y181I)	RT-Y181I	syncytia	6.6 µM